For test [1], the target named is Nav1.2 (Homo sapiens, UniProt Q99250). Kind of test: IC50 (Nav1.2) µM. Particulars: read-out: IC50 (Nav1.2) µM.
The target of test [2] is Nav1.7 (Homo sapiens, UniProt Q15858, W1161R). As to the kind of experiment: IC50 (Nav1.7) µM. Particulars: read-out: IC50 (Nav1.7) µM.

Amino acid sequences for entries named in this document (tags omitted).
UniProt Q99250, whole entry, looked up: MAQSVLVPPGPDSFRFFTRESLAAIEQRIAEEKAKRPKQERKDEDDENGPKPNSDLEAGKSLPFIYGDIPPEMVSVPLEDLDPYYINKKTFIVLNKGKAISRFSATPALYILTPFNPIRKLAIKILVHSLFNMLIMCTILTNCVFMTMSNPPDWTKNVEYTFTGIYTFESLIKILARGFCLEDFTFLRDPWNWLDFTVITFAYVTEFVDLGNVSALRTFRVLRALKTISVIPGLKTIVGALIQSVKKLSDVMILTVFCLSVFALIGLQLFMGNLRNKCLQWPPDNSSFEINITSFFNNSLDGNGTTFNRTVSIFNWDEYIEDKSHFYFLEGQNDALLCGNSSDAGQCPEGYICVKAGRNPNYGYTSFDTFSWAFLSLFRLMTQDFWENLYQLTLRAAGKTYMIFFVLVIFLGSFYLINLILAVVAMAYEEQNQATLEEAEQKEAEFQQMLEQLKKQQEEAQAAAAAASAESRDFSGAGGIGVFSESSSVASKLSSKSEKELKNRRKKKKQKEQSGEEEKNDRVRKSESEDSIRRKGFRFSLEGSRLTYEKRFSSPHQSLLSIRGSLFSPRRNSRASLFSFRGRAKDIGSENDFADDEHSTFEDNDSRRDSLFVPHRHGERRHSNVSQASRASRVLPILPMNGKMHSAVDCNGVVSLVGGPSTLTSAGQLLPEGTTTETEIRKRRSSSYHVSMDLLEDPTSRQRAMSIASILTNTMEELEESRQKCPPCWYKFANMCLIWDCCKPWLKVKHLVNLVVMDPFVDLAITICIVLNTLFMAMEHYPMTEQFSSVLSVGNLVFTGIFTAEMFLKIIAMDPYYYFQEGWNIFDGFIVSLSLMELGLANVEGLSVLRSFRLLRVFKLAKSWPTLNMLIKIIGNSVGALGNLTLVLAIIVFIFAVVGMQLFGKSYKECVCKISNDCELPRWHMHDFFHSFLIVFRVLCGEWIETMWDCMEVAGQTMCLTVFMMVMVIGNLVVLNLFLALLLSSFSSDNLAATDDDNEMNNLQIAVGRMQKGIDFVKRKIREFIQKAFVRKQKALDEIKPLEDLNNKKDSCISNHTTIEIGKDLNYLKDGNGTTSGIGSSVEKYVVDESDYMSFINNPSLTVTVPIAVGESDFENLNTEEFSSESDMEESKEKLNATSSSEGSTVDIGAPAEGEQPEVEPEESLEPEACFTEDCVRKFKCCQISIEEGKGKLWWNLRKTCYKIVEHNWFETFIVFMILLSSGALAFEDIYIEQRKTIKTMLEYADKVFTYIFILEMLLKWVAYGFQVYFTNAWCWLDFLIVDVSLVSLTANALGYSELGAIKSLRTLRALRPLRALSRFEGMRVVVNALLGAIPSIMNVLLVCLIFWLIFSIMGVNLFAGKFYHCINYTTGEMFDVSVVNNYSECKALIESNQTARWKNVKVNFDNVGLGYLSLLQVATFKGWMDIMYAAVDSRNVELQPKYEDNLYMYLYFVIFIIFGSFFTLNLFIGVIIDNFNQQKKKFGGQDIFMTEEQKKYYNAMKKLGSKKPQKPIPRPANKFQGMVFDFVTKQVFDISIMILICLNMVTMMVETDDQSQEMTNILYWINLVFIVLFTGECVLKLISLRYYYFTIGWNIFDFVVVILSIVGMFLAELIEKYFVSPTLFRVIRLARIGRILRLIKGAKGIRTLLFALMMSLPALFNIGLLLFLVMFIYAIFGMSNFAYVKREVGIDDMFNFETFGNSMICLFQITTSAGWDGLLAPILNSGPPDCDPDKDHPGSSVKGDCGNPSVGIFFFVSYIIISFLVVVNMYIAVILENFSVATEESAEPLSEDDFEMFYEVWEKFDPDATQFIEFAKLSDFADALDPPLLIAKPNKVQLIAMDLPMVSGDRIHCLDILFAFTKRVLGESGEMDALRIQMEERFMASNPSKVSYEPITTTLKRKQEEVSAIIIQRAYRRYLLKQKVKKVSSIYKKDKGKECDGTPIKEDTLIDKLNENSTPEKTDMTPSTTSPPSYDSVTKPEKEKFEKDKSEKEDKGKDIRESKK
UniProt Q15858, whole entry W1161R, looked up: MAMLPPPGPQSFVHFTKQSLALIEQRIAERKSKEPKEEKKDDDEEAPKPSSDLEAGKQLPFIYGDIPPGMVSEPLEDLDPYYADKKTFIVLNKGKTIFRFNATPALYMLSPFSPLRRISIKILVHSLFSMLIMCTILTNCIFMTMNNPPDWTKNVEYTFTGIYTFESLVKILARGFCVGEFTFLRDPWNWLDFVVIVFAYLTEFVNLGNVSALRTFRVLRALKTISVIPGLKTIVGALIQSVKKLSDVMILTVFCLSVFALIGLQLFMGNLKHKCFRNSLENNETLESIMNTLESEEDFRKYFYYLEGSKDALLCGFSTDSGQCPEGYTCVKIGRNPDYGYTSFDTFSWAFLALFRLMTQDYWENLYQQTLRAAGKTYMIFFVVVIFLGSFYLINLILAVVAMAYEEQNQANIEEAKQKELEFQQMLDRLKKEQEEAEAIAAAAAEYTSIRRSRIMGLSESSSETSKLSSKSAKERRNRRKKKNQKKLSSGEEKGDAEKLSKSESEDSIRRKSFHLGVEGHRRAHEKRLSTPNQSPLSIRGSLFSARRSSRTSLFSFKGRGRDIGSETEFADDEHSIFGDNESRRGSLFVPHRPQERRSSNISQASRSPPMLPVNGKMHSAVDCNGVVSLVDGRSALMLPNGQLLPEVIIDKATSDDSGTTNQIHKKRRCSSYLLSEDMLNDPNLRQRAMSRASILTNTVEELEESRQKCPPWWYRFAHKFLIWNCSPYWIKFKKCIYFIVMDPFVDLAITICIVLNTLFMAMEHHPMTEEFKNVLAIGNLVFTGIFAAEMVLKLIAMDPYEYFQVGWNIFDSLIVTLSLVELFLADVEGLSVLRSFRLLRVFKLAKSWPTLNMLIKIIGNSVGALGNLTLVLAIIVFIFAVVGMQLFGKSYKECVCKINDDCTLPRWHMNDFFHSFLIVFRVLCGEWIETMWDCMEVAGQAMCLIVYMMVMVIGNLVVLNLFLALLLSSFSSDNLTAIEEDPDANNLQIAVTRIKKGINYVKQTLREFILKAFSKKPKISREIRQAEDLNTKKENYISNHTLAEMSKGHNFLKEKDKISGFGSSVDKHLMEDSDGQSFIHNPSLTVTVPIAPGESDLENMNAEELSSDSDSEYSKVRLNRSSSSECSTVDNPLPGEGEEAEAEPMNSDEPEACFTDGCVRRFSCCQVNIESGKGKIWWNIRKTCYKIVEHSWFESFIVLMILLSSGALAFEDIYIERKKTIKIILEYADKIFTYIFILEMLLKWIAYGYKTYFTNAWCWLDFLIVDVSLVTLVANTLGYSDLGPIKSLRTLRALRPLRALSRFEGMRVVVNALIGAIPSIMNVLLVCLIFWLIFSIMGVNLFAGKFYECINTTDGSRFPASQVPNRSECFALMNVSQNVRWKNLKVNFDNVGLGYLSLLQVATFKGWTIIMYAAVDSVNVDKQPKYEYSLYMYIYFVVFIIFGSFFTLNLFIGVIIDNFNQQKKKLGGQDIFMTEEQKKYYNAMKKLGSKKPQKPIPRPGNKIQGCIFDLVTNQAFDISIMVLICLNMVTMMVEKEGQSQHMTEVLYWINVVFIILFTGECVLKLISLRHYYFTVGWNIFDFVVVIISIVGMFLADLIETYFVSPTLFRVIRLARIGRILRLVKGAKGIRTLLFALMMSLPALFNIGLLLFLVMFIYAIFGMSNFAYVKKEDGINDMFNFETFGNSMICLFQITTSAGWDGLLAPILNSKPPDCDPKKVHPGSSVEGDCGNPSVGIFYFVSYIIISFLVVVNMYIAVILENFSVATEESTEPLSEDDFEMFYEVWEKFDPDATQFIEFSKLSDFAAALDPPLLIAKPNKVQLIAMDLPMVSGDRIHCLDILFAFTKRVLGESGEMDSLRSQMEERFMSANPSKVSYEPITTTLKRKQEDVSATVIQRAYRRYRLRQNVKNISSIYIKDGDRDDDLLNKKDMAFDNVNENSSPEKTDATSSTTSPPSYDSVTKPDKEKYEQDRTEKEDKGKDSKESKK

Turning to `CC[C@H](C)[C@@H]1NC(=O)[C@H](CCCNC(=N)N)NC(=O)[C@H](CC(C)C)NC(=O)[C@@H](NC(=O)[C@H](CC(N)=O)NC(=O)[C@@H]2CCCN2C(=O)CN)CSSC[C@@H]2NC(=O)[C@@H]3CSSC[C@@H](C(=O)N[C@@H](CCCCN)C(=O)N[C@@H](Cc4ccc(O)cc4)C(=O)N[C@@H](CCC(N)=O)C(=O)N[C@H](C(=O)N[C@H](C(=O)N[C@@H](CCCCN)C(=O)O)[C@@H](C)CC)[C@@H](C)CC)NC(=O)[C@H](Cc4c[nH]c5ccccc45)NC(=O)[C@H](CCCNC(=N)N)NC(=O)[C@H]([C@@H](C)O)NC(=O)[C@H](CCCCN)NC(=O)[C@H](CCCNC(=N)N)NC(=O)[C@H](CO)NC(=O)[C@H](CSSC[C@H](NC(=O)[C@H](C)NC(=O)[C@H](CCCCN)NC(=O)[C@H](Cc4ccccc4)NC1=O)C(=O)N[C@@H](CC(N)=O)C(=O)N1CCC[C@H]1C(=O)N[C@@H](CO)C(=O)N[C@@H](CC(N)=O)C(=O)N[C@@H](CC(=O)O)C(=O)N[C@@H](CCC(N)=O)C(=O)N3)NC(=O)[C@H](C(C)C)NC(=O)[C@H](CC(C)C)NC(=O)[C@H](CCCCN)NC(=O)[C@H](CO)NC(=O)[C@H](CO)NC(=O)[C@H](CCCCN)NC2=O`, the results for the IC50 in test [1] and in test [2] were 0.15 µM and 0.02 µM, respectively.

For the compound `CC[C@H](C)[C@H](NC(=O)[C@H](CCC(N)=O)NC(=O)[C@H](Cc1ccc(O)cc1)NC(=O)[C@H](CCCCN)NC(=O)[C@@H]1CSSC[C@@H]2NC(=O)[C@H](CCC(N)=O)NC(=O)[C@H](CC(=O)O)NC(=O)[C@H](CC(N)=O)NC(=O)[C@H](CO)NC(=O)[C@@H]3CCCN3C(=O)[C@H](CC(N)=O)NC(=O)[C@@H]3CSSC[C@H](NC(=O)[C@H](C(C)C)NC(=O)[C@H](CC(C)C)NC(=O)[C@H](CCCCN)NC(=O)[C@H](CO)NC(=O)[C@H](CO)NC(=O)[C@H](CCCCN)NC(=O)[C@H](CSSC[C@H](NC(=O)[C@H](CCC(=O)O)NC(=O)[C@@H]4CCCN4C(=O)CN)C(=O)N[C@@H](CC(C)C)C(=O)N[C@@H](CCC(=O)O)C(=O)N[C@@H]([C@@H](C)CC)C(=O)N[C@@H](Cc4ccccc4)C(=O)N[C@@H](CCCCN)C(=O)N[C@@H](C)C(=O)N3)NC2=O)C(=O)N[C@@H](CO)C(=O)N[C@@H](CCCNC(=N)N)C(=O)N[C@@H](Cc2c[nH]c3ccccc23)C(=O)N[C@@H]([C@@H](C)O)C(=O)N[C@@H](CCCNC(=N)N)C(=O)N[C@@H](Cc2c[nH]c3ccccc23)C(=O)N1)C(=O)NCC(=O)N[C@@H](CCCCN)C(=O)O`, the results for the IC50 in test [1] and in test [2] were greater than 0.92 µM and 0.06 µM, respectively.

Turning to `CC[C@H](C)[C@H](NC(=O)[C@H](CCC(N)=O)NC(=O)[C@H](Cc1ccc(O)cc1)NC(=O)[C@H](CCCCN)NC(=O)[C@@H]1CSSC[C@@H]2NC(=O)[C@H](CC(N)=O)NC(=O)[C@H](CC(=O)O)NC(=O)[C@H](CC(N)=O)NC(=O)[C@H](CO)NC(=O)[C@@H]3CCCN3C(=O)[C@H](CC(N)=O)NC(=O)[C@@H]3CSSC[C@H](NC(=O)[C@H](C(C)C)NC(=O)[C@H](CC(C)C)NC(=O)[C@H](CCCCN)NC(=O)[C@H](CO)NC(=O)[C@H](CO)NC(=O)[C@H](CCCCN)NC(=O)[C@H](CSSC[C@H](NC(=O)[C@H](CCC(=O)O)NC(=O)[C@@H]4CCCN4C(=O)CN)C(=O)N[C@@H](CC(C)C)C(=O)N[C@@H](CCC(=O)O)C(=O)N[C@@H]([C@@H](C)CC)C(=O)N[C@@H](Cc4ccccc4)C(=O)N[C@@H](CCCCN)C(=O)N[C@@H](C)C(=O)N3)NC2=O)C(=O)N[C@@H](CO)C(=O)N[C@@H](CCCNC(=N)N)C(=O)N[C@@H](CCCCN)C(=O)N[C@@H]([C@@H](C)O)C(=O)N[C@@H](CCCNC(=N)N)C(=O)N[C@@H](Cc2c[nH]c3ccccc23)C(=O)N1)C(=O)NCC(=O)N[C@@H](CCCCN)C(=O)O`, the IC50 was determined as 0.06 µM in test [1] and 0.02 µM in test [2].

Consider `CC[C@H](C)[C@H](NC(=O)[C@H](CO)NC(=O)[C@H](Cc1c[nH]c2ccccc12)NC(=O)[C@H](CCCCN)NC(=O)[C@@H]1CSSC[C@@H]2NC(=O)[C@H](CCC(N)=O)NC(=O)[C@H](CC(=O)O)NC(=O)[C@H](CC(N)=O)NC(=O)[C@H](CO)NC(=O)[C@@H]3CCCN3C(=O)[C@H](CC(N)=O)NC(=O)[C@@H]3CSSC[C@H](NC(=O)[C@H](C(C)C)NC(=O)[C@H](CC(C)C)NC(=O)[C@H](CCCCN)NC(=O)[C@H](CO)NC(=O)[C@H](CO)NC(=O)[C@H](CCCCN)NC(=O)[C@H](CSSC[C@H](NC(=O)[C@H](CC(N)=O)NC(=O)[C@@H]4CCCN4C(=O)CN)C(=O)N[C@@H](CC(C)C)C(=O)N[C@@H](CCC(=O)O)C(=O)N[C@@H]([C@@H](C)CC)C(=O)N[C@@H](Cc4ccccc4)C(=O)N[C@@H](CCCCN)C(=O)N[C@@H](C)C(=O)N3)NC2=O)C(=O)N[C@@H](CO)C(=O)N[C@@H](CCCNC(=N)N)C(=O)N[C@@H](CCCCN)C(=O)N[C@@H]([C@@H](C)O)C(=O)N[C@@H](CCCNC(=N)N)C(=O)N[C@@H](Cc2c[nH]c3ccccc23)C(=O)N1)C(=O)NCC(=O)N[C@@H](CCCCN)C(=O)O`, for which the IC50 in test [2] is 0.02 µM.

For the compound `CC[C@H](C)[C@H](NC(=O)[C@H](CCC(N)=O)NC(=O)[C@H](Cc1ccc(O)cc1)NC(=O)[C@H](CCCCN)NC(=O)[C@@H]1CSSC[C@@H]2NC(=O)[C@H](CCC(N)=O)NC(=O)[C@H](CC(=O)O)NC(=O)[C@H](CC(N)=O)NC(=O)[C@H](CO)NC(=O)[C@@H]3CCCN3C(=O)[C@H](CC(N)=O)NC(=O)[C@@H]3CSSC[C@H](NC(=O)[C@H](C(C)C)NC(=O)[C@H](CC(C)C)NC(=O)[C@H](CCCCN)NC(=O)[C@H](CO)NC(=O)[C@H](CO)NC(=O)[C@H](CCCCN)NC(=O)[C@H](CSSC[C@H](NC(=O)[C@H](CCC(=O)O)NC(=O)[C@@H]4CCCN4C(=O)CN)C(=O)N[C@@H](CC(C)C)C(=O)N[C@@H](CCC(=O)O)C(=O)N[C@@H]([C@@H](C)CC)C(=O)N[C@@H](Cc4ccccc4)C(=O)N[C@@H](CCCCN)C(=O)N[C@@H](CCCNC(=N)N)C(=O)N3)NC2=O)C(=O)N[C@@H](CO)C(=O)N[C@@H](CCCNC(=N)N)C(=O)N[C@@H](CCCCN)C(=O)N[C@@H]([C@@H](C)O)C(=O)N[C@@H](CCCNC(=N)N)C(=O)N[C@@H](Cc2c[nH]c3ccccc23)C(=O)N1)C(=O)NCC(=O)N[C@@H](CCCCN)C(=O)O`, the IC50 in test [2] was 0.02 µM.

As to `CC[C@H](C)[C@@H]1NC(=O)[C@H](CCC(=O)O)NC(=O)[C@H](CC(C)C)NC(=O)[C@@H](NC(=O)[C@H](CCC(=O)O)NC(=O)[C@@H]2CCCN2C(=O)CN)CSSC[C@@H]2NC(=O)[C@@H]3CSSC[C@@H](C(=O)N[C@@H](CCCCN)C(=O)N[C@@H](Cc4ccc(O)cc4)C(=O)N[C@@H](CCC(N)=O)C(=O)N[C@H](C(=O)N[C@H](C(=O)N[C@@H](CCCCN)C(=O)O)[C@@H](C)CC)[C@@H](C)CC)NC(=O)[C@H](Cc4c[nH]c5ccccc45)NC(=O)[C@H](CCCNC(=N)N)NC(=O)[C@H]([C@@H](C)O)NC(=O)[C@H](CCCCN)NC(=O)[C@H](CCCCN)NC(=O)[C@H](CO)NC(=O)[C@H](CSSC[C@H](NC(=O)[C@H](C)NC(=O)[C@H](CCCCN)NC(=O)[C@H](Cc4ccccc4)NC1=O)C(=O)N[C@@H](CC(N)=O)C(=O)N1CCC[C@H]1C(=O)N[C@@H](CO)C(=O)N[C@@H](CC(N)=O)C(=O)N[C@@H](CC(=O)O)C(=O)N[C@@H](CCC(N)=O)C(=O)N3)NC(=O)[C@H](C(C)C)NC(=O)[C@H](CC(C)C)NC(=O)[C@H](CCCCN)NC(=O)[C@H](CO)NC(=O)[C@H](CO)NC(=O)[C@H](CCCCN)NC2=O`, in test [2], the IC50 stood at 0.31 µM.

Turning to `CC[C@H](C)[C@H](NC(=O)[C@H](Cc1ccccc1)NC(=O)[C@H](Cc1ccc(O)cc1)NC(=O)[C@H](CCCCN)NC(=O)[C@@H]1CSSC[C@@H]2NC(=O)[C@H](CCC(N)=O)NC(=O)[C@H](CC(=O)O)NC(=O)[C@H](CC(N)=O)NC(=O)[C@H](CO)NC(=O)[C@@H]3CCCN3C(=O)[C@H](CC(N)=O)NC(=O)[C@@H]3CSSC[C@H](NC(=O)[C@H](C(C)C)NC(=O)[C@H](CC(C)C)NC(=O)[C@H](CCCCN)NC(=O)[C@H](CO)NC(=O)[C@H](CO)NC(=O)[C@H](CCCCN)NC(=O)[C@H](CSSC[C@H](NC(=O)[C@H](CCC(=O)O)NC(=O)[C@@H]4CCCN4C(=O)CN)C(=O)N[C@@H](CC(C)C)C(=O)N[C@@H](CCC(=O)O)C(=O)N[C@@H]([C@@H](C)CC)C(=O)N[C@@H](Cc4ccccc4)C(=O)N[C@@H](CCCCN)C(=O)N[C@@H](C)C(=O)N3)NC2=O)C(=O)N[C@@H](CO)C(=O)N[C@@H](CCCNC(=N)N)C(=O)N[C@@H](CCCCN)C(=O)N[C@@H]([C@@H](C)O)C(=O)N[C@@H](CCCNC(=N)N)C(=O)N[C@@H](Cc2c[nH]c3ccccc23)C(=O)N1)C(=O)NCC(=O)N[C@@H](CCCCN)C(=O)O`, the IC50 in test [1] is greater than 0.06 µM.

For `CC[C@H](C)[C@H](NC(=O)[C@H](CO)NC(=O)[C@H](Cc1ccc(O)cc1)NC(=O)[C@H](CCCCN)NC(=O)[C@@H]1CSSC[C@@H]2NC(=O)[C@H](CCC(N)=O)NC(=O)[C@H](CC(=O)O)NC(=O)[C@H](CC(N)=O)NC(=O)[C@H](CO)NC(=O)[C@@H]3CCCN3C(=O)[C@H](CC(N)=O)NC(=O)[C@@H]3CSSC[C@H](NC(=O)[C@H](C(C)C)NC(=O)[C@H](CC(C)C)NC(=O)[C@H](CCCCN)NC(=O)[C@H](CO)NC(=O)[C@H](CO)NC(=O)[C@H](CCCCN)NC(=O)[C@H](CSSC[C@H](NC(=O)[C@H](CC(N)=O)NC(=O)[C@@H]4CCCN4C(=O)CN)C(=O)N[C@@H](CC(C)C)C(=O)N[C@@H](CCCNC(=N)N)C(=O)N[C@@H]([C@@H](C)CC)C(=O)N[C@@H](Cc4ccccc4)C(=O)N[C@@H](CCCCN)C(=O)N[C@@H](C)C(=O)N3)NC2=O)C(=O)N[C@@H](CO)C(=O)N[C@@H](CCCCN)C(=O)N[C@@H](CCCCN)C(=O)N[C@@H]([C@@H](C)O)C(=O)N[C@@H](CCCNC(=N)N)C(=O)N[C@@H](Cc2c[nH]c3ccccc23)C(=O)N1)C(=O)NCC(=O)N[C@@H](CCCCN)C(=O)O`, the IC50 in test [1] amounted to 0.11 µM.

The values above are taken from patent US10414808B2 (priority 2012, dated 2019).
